Experimental data reported in paper PMC7048180.

Amino acid sequences for entries named in this document (tags omitted). Residues count along the entry.
UniProt Q9BYF1, 18-805: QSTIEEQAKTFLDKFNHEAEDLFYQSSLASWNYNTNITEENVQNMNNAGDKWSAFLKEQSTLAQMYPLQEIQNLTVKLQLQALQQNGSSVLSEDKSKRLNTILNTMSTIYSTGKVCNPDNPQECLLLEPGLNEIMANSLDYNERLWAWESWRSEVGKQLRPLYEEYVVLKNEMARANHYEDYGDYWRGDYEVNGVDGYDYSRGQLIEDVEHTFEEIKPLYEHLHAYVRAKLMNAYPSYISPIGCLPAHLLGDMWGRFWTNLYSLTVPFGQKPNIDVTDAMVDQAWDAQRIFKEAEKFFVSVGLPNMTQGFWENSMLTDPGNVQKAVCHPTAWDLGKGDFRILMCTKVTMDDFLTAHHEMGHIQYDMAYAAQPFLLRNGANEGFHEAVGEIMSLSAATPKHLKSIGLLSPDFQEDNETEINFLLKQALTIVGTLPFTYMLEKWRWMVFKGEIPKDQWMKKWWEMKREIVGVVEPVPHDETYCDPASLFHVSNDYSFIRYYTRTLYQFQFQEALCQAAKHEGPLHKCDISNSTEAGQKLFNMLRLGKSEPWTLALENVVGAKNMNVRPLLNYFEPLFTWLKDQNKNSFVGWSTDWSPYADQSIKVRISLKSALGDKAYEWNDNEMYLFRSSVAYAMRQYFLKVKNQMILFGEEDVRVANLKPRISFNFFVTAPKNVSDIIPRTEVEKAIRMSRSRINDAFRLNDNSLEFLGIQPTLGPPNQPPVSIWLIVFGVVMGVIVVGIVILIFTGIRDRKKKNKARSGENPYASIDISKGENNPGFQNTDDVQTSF

Biological target: 2019 novel coronavirus (2019-nCoV) spike protein receptor-binding domain (2019-nCoV)
Test: BLI

Substance: human angiotensin-converting enzyme 2 (from UniProt Q9BYF1 18-805) (receptor)
- Kd: 15.2 nM
